# From patent US20250387420A1, “Prevention of Nausea and Vomiting from Antibody-Drug Conjugates and other Long-Acting Emetogenics” (Helsinn Healthcare SA, priority 2024, published 2025)
# Tested on: patients with HER2-positive ABC treated with T-DXd
# Settings: at data cutoff; 59 patients
substance,measurement,value
trastuzumab deruxtecan [T-DXd],patients who discontinued T-DXd due to intractable nausea and vomiting,no patients
